Source: patent publication EP1369120B1 (priority 2002, dated 2003)
“And” between values parts separate entries of the source, which are not always exact repeats. Equal values may be shown once. Which two values form the index is not stated here.

System: HCV sub-genomic replicons (Ava.5)
Type: cell-based, hepatitis C virus
Conditions: human, huh-7 hcv replicon cells

arsenic trioxide [As2O3]
Therapeutic Index: 8.5/0.26 = 32.7 and 4.8/0.19 = 25.3 and 8.5/0.27 = 31.5 and 4.8/0.16 = 30.0
